# Test results taken from ChEMBL document CHEMBL1629590, “Variety of antiprion compounds discovered through an in silico screen based on cellular-form prion protein structure: Correlation between antiprion activity and binding affinity” (Antimicrob Agents Chemother, 2009).
# Protein sequences, listed by entry. Tags and fused reporters are not part of them.
# UniProt P04925, whole entry: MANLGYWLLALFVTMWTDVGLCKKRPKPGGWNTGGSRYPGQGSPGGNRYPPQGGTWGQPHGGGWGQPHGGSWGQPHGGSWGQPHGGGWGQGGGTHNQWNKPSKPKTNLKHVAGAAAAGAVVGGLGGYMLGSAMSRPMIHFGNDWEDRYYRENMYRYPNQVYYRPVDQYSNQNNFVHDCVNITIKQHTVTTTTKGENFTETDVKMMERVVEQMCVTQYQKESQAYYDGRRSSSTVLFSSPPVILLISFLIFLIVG
# Target: Major prion protein (Mus musculus) (UniProt P04925)
# Experiment: Antiprion activity against mouse recombinant PrP expressed in Fukuoka-1 stain infected mouse GT1-7 cells assessed as remaining PrP-res level at 10 uM after 72 hrs by Western blotting relative to control
# Assay type: cell-based
# Summary of the method: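 GT+FK cells (GT1-7 neuronal line persistently infected with Fukuoka-1 agent) in DMEM/10% FBS, 37°C, 5% CO2; 1.5 × 10⁵ cells/well, dosed 15 h after plating with compound from fresh 10 mM DMSO stock (vehicle 0.1%) for 72 h. Lysates in Triton X-100/deoxycholate buffer adjusted to 2 mg/ml protein; PrP^Sc by Western blot with M-20 antibody, densitometry versus solvent control; effective if <70% of control; ≥2 independent experiments.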
row,Compound,Activity
1,CC(=O)N(Cc1ccccc1)Cc1cc2cccc(C)c2n2nnnc12,95.7%
2,C=CCNC(=O)NC(=O)CSc1nc2ccccc2n1CC(C)C,56.7%
3,O=C(CSc1ncnc2sc3c(c12)CCC3)NCC1CCCO1 (stereo not drawn),93.7%
